Experimental data: PubChem BioAssay AID504811 (Drosophila RNAi Screening Center, 2011)

Screen: 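Fly genes whose silencing alters Listeria monocytogenes infection in cultured cells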 (primary screen)
System: Drosophila SL2 cells
Reagents: long dsRNA against Drosophila genes
Treatment: infection with GFP-expressing Listeria monocytogenes; dose and duration not given
Measurement: 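Microscopy of GFP-labelled Listeria in infected cells, with each well visually classed as down, up or spots relative to controls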
Hit rule: 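Hit when the GFP pattern of infection differs visibly from controls, classed as down, up or spots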
Calls: active = hit; inactive = not a hit
Only reagents picked out of a larger screen are listed. 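Only hits are listed, without non-hit dsRNAs or numeric scores; replicate 2 has entries for just two rows.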 A number with no mark means an inactive call. Names joined by + are all predicted targets of the reagent. Not given: the amount of reagent, the time to read-out.

Gene	DRSC id	infection phenotype, replicate 1
Vha26	DRSC12371	less bacterial GFP than control wells (fewer infected cells or weaker signal per cell) (active)
Syx5	DRSC03432	less bacterial GFP than control wells (fewer infected cells or weaker signal per cell) (active)
CycA	DRSC09132	stronger bacterial GFP per infected cell than controls (active)
CycA	DRSC11123	stronger bacterial GFP per infected cell than controls (active)
gas	DRSC04521	less bacterial GFP than control wells (fewer infected cells or weaker signal per cell) (active)
hyx	DRSC14462	less bacterial GFP than control wells (fewer infected cells or weaker signal per cell) (active)
shrb	DRSC07061	less bacterial GFP than control wells (fewer infected cells or weaker signal per cell) (active)
Sec23	DRSC12387	less bacterial GFP than control wells (fewer infected cells or weaker signal per cell) (active)
RpL24	DRSC03185	stronger bacterial GFP per infected cell than controls (active)
Sec5	DRSC00714	less bacterial GFP than control wells (fewer infected cells or weaker signal per cell) (active)
Sf3a1	DRSC15166	less bacterial GFP than control wells (fewer infected cells or weaker signal per cell) (active)
RpS28b	DRSC18258	stronger bacterial GFP per infected cell than controls (active)
SmE	DRSC02680	less bacterial GFP than control wells (fewer infected cells or weaker signal per cell) (active)
CG17493	DRSC03798	less bacterial GFP than control wells (fewer infected cells or weaker signal per cell) (active)
RpLP1	DRSC00783	stronger bacterial GFP per infected cell than controls (active)
RpL21	DRSC03704	stronger bacterial GFP per infected cell than controls (active)
CG43736 + CG33692 (retired record)	DRSC18370	less bacterial GFP than control wells (fewer infected cells or weaker signal per cell) (active)
E2f1	DRSC16655	stronger bacterial GFP per infected cell than controls (active)
pbl	DRSC11381	stronger bacterial GFP per infected cell than controls (active)
beta'COP	DRSC03492	less bacterial GFP than control wells (fewer infected cells or weaker signal per cell) (active)
alphaSnap	DRSC11285	less bacterial GFP than control wells (fewer infected cells or weaker signal per cell) (active)
Trf2	DRSC18727	less bacterial GFP than control wells (fewer infected cells or weaker signal per cell) (active)
nsl1	DRSC15625	stronger bacterial GFP per infected cell than controls (active)
vih	DRSC09778	less bacterial GFP than control wells (fewer infected cells or weaker signal per cell) (active)
grsm	DRSC14165	stronger bacterial GFP per infected cell than controls (active)
Mi-2	DRSC11222	less bacterial GFP than control wells (fewer infected cells or weaker signal per cell) (active)
RpS14b	DRSC18711	stronger bacterial GFP per infected cell than controls (active)
MED16	DRSC04506	less bacterial GFP than control wells (fewer infected cells or weaker signal per cell) (active)
Vha55	DRSC16896	less bacterial GFP than control wells (fewer infected cells or weaker signal per cell) (active)
VhaAC45	DRSC07058	less bacterial GFP than control wells (fewer infected cells or weaker signal per cell) (active)
Arpc2	DRSC02113	less bacterial GFP than control wells (fewer infected cells or weaker signal per cell) (active)
RpLP2	DRSC07539	stronger bacterial GFP per infected cell than controls (active)
CG6015	DRSC15948	less bacterial GFP than control wells (fewer infected cells or weaker signal per cell) (active)
Ykt6	DRSC17970	less bacterial GFP than control wells (fewer infected cells or weaker signal per cell) (active)
Ctns	DRSC15175	stronger bacterial GFP per infected cell than controls (active)
mtt	DRSC05106	less bacterial GFP than control wells (fewer infected cells or weaker signal per cell) (active)
RpS30	DRSC15119	stronger bacterial GFP per infected cell than controls (active)
pea	DRSC07120	less bacterial GFP than control wells (fewer infected cells or weaker signal per cell) (active)
Klp61F	DRSC08671	stronger bacterial GFP per infected cell than controls (active)
klg	DRSC16978	bacterial GFP seen as punctate clusters; pointing to bacteria failing to leave the vacuole (active)
Cdk1	DRSC03504	stronger bacterial GFP per infected cell than controls (active)
Rab8	DRSC11261	less bacterial GFP than control wells (fewer infected cells or weaker signal per cell) (active)
nej	DRSC18006	less bacterial GFP than control wells (fewer infected cells or weaker signal per cell) (active)
nej	DRSC18801	less bacterial GFP than control wells (fewer infected cells or weaker signal per cell) (active)
RpL17	DRSC18293	stronger bacterial GFP per infected cell than controls (active)
Taf6	DRSC11299	less bacterial GFP than control wells (fewer infected cells or weaker signal per cell) (active)
RpL30	DRSC02087	stronger bacterial GFP per infected cell than controls (active)
RpL13A	DRSC12265	stronger bacterial GFP per infected cell than controls (active)
sbr	DRSC19770	stronger bacterial GFP per infected cell than controls (active)
sbr	DRSC20368	stronger bacterial GFP per infected cell than controls (active)
BubR1	DRSC04838	stronger bacterial GFP per infected cell than controls (active)
Spindly	DRSC00430	less bacterial GFP than control wells (fewer infected cells or weaker signal per cell) (active)
RpL27	DRSC15638	stronger bacterial GFP per infected cell than controls (active)
Arf1	DRSC11606	less bacterial GFP than control wells (fewer infected cells or weaker signal per cell) (active)
RpS29 + snoRNA:Psi18S-1275	DRSC16433	stronger bacterial GFP per infected cell than controls (active)
Ced-12	DRSC02840	less bacterial GFP than control wells (fewer infected cells or weaker signal per cell) (active)
RpL8	DRSC08532	stronger bacterial GFP per infected cell than controls (active)
RpL8	DRSC08695	stronger bacterial GFP per infected cell than controls (active)
